## Vif LAI: effect of single changes on growth against APOBEC3G

Values reported by Langley et al. 2025, preprint (doi:10.1101/2025.10.20.683452).

Vif of LAI (a laboratory-adapted subtype B strain), residues 12-115; positions count from the first residue of the whole protein:
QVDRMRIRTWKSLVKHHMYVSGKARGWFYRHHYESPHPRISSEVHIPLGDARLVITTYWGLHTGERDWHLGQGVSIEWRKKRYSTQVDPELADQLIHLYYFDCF

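Pooled viruses with one designed change each in Vif went through two 72 h rounds in SupT1 cells expressing APOBEC3G. Frequencies after the second round, in three biological replicates, were compared with the merged pool after the first round.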

Scale: log2 enrichment, wild type = 0; negative values mean that the variant was depleted.
Substitutions are written as wild-type residue, site number, new residue.
All changes here are to phenylalanine.
The median of three replicates is given.
Input reads are the counts in the merged round-one pool, before selection.

For V85F (input reads 2512) the result was -2.04. With S86F (input reads 527) the assay gave -1.12. I87F (input reads 481) gave -1.80. E88F (input reads 442) read -1.40. R90F (input reads 3141) gave -1.11. With K91F (input reads 597) the assay gave -2.78. K92F (input reads 48) read -1.35.

With T96F (input reads 349) the assay gave -0.01. For Q97F (input reads 327) the result was -2.25. V98F (input reads 865) read -1.21. For D99F (input reads 393) the result was -3.66. For L102F (input reads 169) the result was -1.33. With A103F (input reads 449) the assay gave -2.92. With D104F (input reads 476) the assay gave -3.56.

Q105F (input reads 50) read -1.87. For L106F (input reads 269) the result was -0.12. I107F (input reads 119) gave -1.91. With H108F (input reads 353) the assay gave 0.40. Y110F (input reads 91) gave 1.69. Y111F (input reads 1629) read -2.73.

The authors note that some positive scores may be noise, and some enriched variants failed when tested singly.
Some changes are missing from the data or left out.
The scan is noisy: the rank correlation of replicates is about 0.4 to 0.65, and variants with under about 50 input reads tend to read too high.